Reference: ChEMBL document CHEMBL5316329, “Structure-Based Optimization of 2,4,5-Trisubstituted Pyrimidines as Potent HIV-1 Non-Nucleoside Reverse Transcriptase Inhibitors: Exploiting the Tolerant Regions of the Non-Nucleoside Reverse Transcriptase Inhibitors' Binding Pocket” (J Med Chem, 2023)

Molecular target: Human immunodeficiency virus type 1 reverse transcriptase (Human immunodeficiency virus 1, UniProt Q72547)
Experiment: Inhibition of wild-type HIV-1 reverse transcriptase assessed as inhibition of biotin-dUTP incorporation

## Cc1cc(C#N)cc(C)c1Oc1nc(Nc2ccc(C#N)cc2)nc(N)c1Br [ETRAVIRINE]
  EC50: 3.55 nM
